Measurements reported in PubChem BioAssay AID1259414 (Drosophila RNAi Screening Center, 2018)
The deposit covers about 24,000 reagents; this is an unselected part of those with a known target gene and a result. Over the whole deposit, about 1,210 (5%) got an active call. 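Inactive calls also include excluded dsRNAs with several or no targets, genes unexpressed in JW18, and well A1, regardless of score.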 Names joined by + are all predicted targets of the reagent.

- Assay: 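Genome-wide screen for host control of endosymbiont load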 (primary screen)
- System: Drosophila JW18 cells infected with Wolbachia
- Knock-down reagent: long dsRNA against Drosophila genes, 0.25 µg dsRNA per well of a 384-well plate
- Duration: 5 days
- Treatment: cells persistently infected with Wolbachia before knock-down; no added drug
- Measurement: 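Automated imaging of bacterial rRNA staining divided by host cell count, reported as plate-normalised robust z-score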
- Direction: Wolbachia per cell robust z: higher = more Wolbachia per host cell than the plate typical
- Active means: 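Active if absolute robust z reaches 1.5 in two or more of three replicates, leaving out multi- or no-target dsRNAs, genes unexpressed in JW18 and A1 wells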

What is on record for CG8159 [DRSC16392]?
Wolbachia per cell robust z, rep 1: 0.23; Wolbachia per cell robust z, rep 2: 1.1; Wolbachia per cell robust z, rep 3: 0.175; Call: inactive

For CG8159 [DRSC27425], what was measured?
Wolbachia per cell robust z, rep 1: 0.333; Wolbachia per cell robust z, rep 2: -1.34; Wolbachia per cell robust z, rep 3: 0.0953; Call: inactive

Which result is listed for RpS4 [DRSC11272]?
Wolbachia per cell robust z, rep 1: 1.58; Wolbachia per cell robust z, rep 2: 3.96; Wolbachia per cell robust z, rep 3: 4.35; Call: active

For Scm [DRSC16853], what was measured?
Wolbachia per cell robust z, rep 1: -1.06; Wolbachia per cell robust z, rep 2: -0.327; Wolbachia per cell robust z, rep 3: -4.49; Call: inactive

What did the screen give for tbc [DRSC20540]?
Wolbachia per cell robust z, rep 1: -1.82; Wolbachia per cell robust z, rep 2: -1.36; Wolbachia per cell robust z, rep 3: -4.09; Call: inactive

Which result is listed for tbc [DRSC23084]?
Wolbachia per cell robust z, rep 1: 0.493; Wolbachia per cell robust z, rep 2: 1.03; Wolbachia per cell robust z, rep 3: 0.76; Call: inactive

What is on record for tbc [DRSC29058]?
Wolbachia per cell robust z, rep 1: -0.659; Wolbachia per cell robust z, rep 2: 1.08; Wolbachia per cell robust z, rep 3: 0.622; Call: inactive

For Rpt6R [DRSC15431], what does the deposit list?
Wolbachia per cell robust z, rep 1: -0.112; Wolbachia per cell robust z, rep 2: 0.879; Wolbachia per cell robust z, rep 3: -0.389; Call: inactive

What did the screen give for dany [DRSC04141]?
Wolbachia per cell robust z, rep 1: 0.968; Wolbachia per cell robust z, rep 2: -2.91; Wolbachia per cell robust z, rep 3: -0.0177; Call: inactive

How did the screen score slmo + CG34179 [DRSC03143]?
Wolbachia per cell robust z, rep 1: 1.1; Wolbachia per cell robust z, rep 2: -6.92; Wolbachia per cell robust z, rep 3: 1.25; Call: inactive

With Arl1 [DRSC09667], what was measured?
Wolbachia per cell robust z, rep 1: 0.504; Wolbachia per cell robust z, rep 2: -0.929; Wolbachia per cell robust z, rep 3: 0.0839; Call: inactive

Laid out differently: 2 of the entries above
{"gene":"CG8159","amplicon":"DRSC16392","Wolbachia per cell robust z, rep 1":0.23,"Wolbachia per cell robust z, rep 2":1.1,"Wolbachia per cell robust z, rep 3":0.175,"Call":"inactive"}
{"gene":"CG8159","amplicon":"DRSC27425","Wolbachia per cell robust z, rep 1":0.333,"Wolbachia per cell robust z, rep 2":-1.34,"Wolbachia per cell robust z, rep 3":0.0953,"Call":"inactive"}

More results follow.
For CG2104 [DRSC12304], how do the results read?
Wolbachia per cell robust z, rep 1: 0.79; Wolbachia per cell robust z, rep 2: -0.0193; Wolbachia per cell robust z, rep 3: -1.16; Call: inactive

For CG2104 [DRSC41610], what was measured?
Wolbachia per cell robust z, rep 1: 1.3; Wolbachia per cell robust z, rep 2: 0.863; Wolbachia per cell robust z, rep 3: 0.632; Call: inactive

For CG33912 [DRSC37815], what was measured?
Wolbachia per cell robust z, rep 1: 0.638; Wolbachia per cell robust z, rep 2: 1.09; Wolbachia per cell robust z, rep 3: 0.277; Call: inactive

For CG34268 + CG34267 [DRSC38856], what does the deposit list?
Wolbachia per cell robust z, rep 1: 0.548; Wolbachia per cell robust z, rep 2: 0.148; Wolbachia per cell robust z, rep 3: 0.407; Call: inactive

What is on record for CG32814 [DRSC17670]?
Wolbachia per cell robust z, rep 1: 0.468; Wolbachia per cell robust z, rep 2: 0.0295; Wolbachia per cell robust z, rep 3: -0.284; Call: inactive

How did the screen score CG32814 [DRSC26042]?
Wolbachia per cell robust z, rep 1: 0.00119; Wolbachia per cell robust z, rep 2: 0.0678; Wolbachia per cell robust z, rep 3: 0.301; Call: inactive

What did the screen give for Tif-IA [DRSC03717]?
Wolbachia per cell robust z, rep 1: 1.05; Wolbachia per cell robust z, rep 2: 1.25; Wolbachia per cell robust z, rep 3: 1.12; Call: inactive

What did the screen give for Tif-IA [DRSC03726]?
Wolbachia per cell robust z, rep 1: 0.423; Wolbachia per cell robust z, rep 2: 1.09; Wolbachia per cell robust z, rep 3: 0.897; Call: inactive

For ctrip [DRSC12242], how do the results read?
Wolbachia per cell robust z, rep 1: 1.25; Wolbachia per cell robust z, rep 2: 1.53; Wolbachia per cell robust z, rep 3: 0.117; Call: inactive

For ctrip [DRSC12287], what was measured?
Wolbachia per cell robust z, rep 1: 0.966; Wolbachia per cell robust z, rep 2: 0.786; Wolbachia per cell robust z, rep 3: 0.441; Call: inactive

What did the screen give for ctrip [DRSC22449]?
Wolbachia per cell robust z, rep 1: -0.767; Wolbachia per cell robust z, rep 2: 1.28; Wolbachia per cell robust z, rep 3: -0.71; Call: inactive

What is on record for ctrip [DRSC23512]?
Wolbachia per cell robust z, rep 1: 0.272; Wolbachia per cell robust z, rep 2: 0.803; Wolbachia per cell robust z, rep 3: -0.813; Call: inactive

With ctrip [DRSC27589], what was measured?
Wolbachia per cell robust z, rep 1: -0.769; Wolbachia per cell robust z, rep 2: -1.8; Wolbachia per cell robust z, rep 3: -1.14; Call: inactive
